For eight compounds, Kd results are on record in publication PMC6514670, “Field-Based Affinity Optimization of a Novel Azabicyclohexane Scaffold HIV-1 Entry Inhibitor” (Molecules, 2019).

pKd: −log10 of the molar value.

For the first assay, the target named is B41 SOSIP.664 gp140 trimer (Human immunodeficiency virus type 1, UniProt B3UES2, A505C/E513R/I563P/INS515RR/K514R/T609C). As to the kind of experiment: SPR direct interaction analysis with immobilized B41 SOSIP.664 gp140 trimer. The conditions noted are these: Table 1, 25 °C. The assay is classed as binding, HIV-1.
Broadly, the pKd is the negative decadic logarithm of the Kd, by convention in mol/L. In the case of `COc1cnc(-n2cnc(C)n2)c2[nH]cc(C(=O)C(=O)N3CC=C(CNC(=O)c4ccccc4)CC3)c12` [SC45], the pKd was 5.96.

`COc1cnc(-n2cnc(C)n2)c2[nH]cc(C(=O)C(=O)N3CC4CN(C(=O)c5ccccc5)CC4C3)c12` (centres unmarked) [SC11] had a negative-log Kd (pKd) of 6.88.

Consider `COc1cnc(-n2cnc(C)n2)c2[nH]cc(C(=O)C(=O)N3CC(CCC(=O)c4ccccc4)C3)c12` [SC15], for which the negative-log Kd (pKd) was 7.74.

The assay is the same for the next values; noted with them: Table 3, 25 °C.
For the compound `C=C(C(=O)NC1C2CN(C(=O)c3ccccc3)CC21)n1ccc2c(-n3cnc(C)n3)nc3ccnn3c21` (centres unmarked) [SC52, N-(3-benzoyl-3-azabicyclo[3.1.0]hexan-6-yl)-2-(5-(3-methyl-1H-1,2,4-triazol-1-yl)-8H-pyrazolo[1,5-a]pyrrolo[3,2-e]pyrimidin-8-yl)acrylamide], the negative-log Kd (pKd) was 4.63.

With `COc1cnc(-n2cnc(C)n2)c2[nH]cc(C(=O)C(=O)NC3C4CN(C(=O)c5ccccc5)CC43)c12` (centres unmarked) [SC28], the negative logarithm of the Kd (pKd) is 6.30.

Compound `CNC(=O)c1ncc(OC)c2c(C(=O)C(=O)NC3C4CN(C(=O)c5ccccc5)CC43)c[nH]c12` (centres unmarked) [SC49] gave a pKd of 4.44.

Consider `Nc1nc(-c2ccc(F)c3c(C(=O)C(=O)NC4C5CN(C(=O)c6ccccc6)CC54)c[nH]c23)no1` (centres unmarked) [SC55, 2-(7-(5-amino-1,2,4-oxadiazol-3-yl)-4-fluoro-1H-indol-3-yl)-N-(3-benzoyl-3-azabicyclo[3.1.0]hexan-6-yl)-2-oxoacetamide], for which the pKd is 4.94.

The compound `O=C(NC1C2CN(C(=O)c3ccccc3)CC21)C(=O)c1c[nH]c2c(-c3cccnc3)ncc(F)c12` (centres unmarked) [SC50] gave a negative logarithm of the Kd (pKd) of 3.94.
